doi:10.1101/2023.09.11.557219v1 (biorxiv, 2023)

Molecular target: SARS-CoV-2 M^pro (main protease, 3CL^pro, NSP5) (Severe acute respiratory syndrome coronavirus 2, UniProt P0DTD1)
Assay: fluorogenic substrate cleavage, Morrison fit
Type: biochemical
Settings: HEPES 25 mM pH 7.0, fluorogenic substrate SAE0180

| SMILES | Ki | Ki (competitive) |
| --- | --- | --- |
| O=C(NC12CC3CC(CC(C3)C1)C2)N1c2ccccc2Sc2ccccc21 | 64 µM |  |
| CN(CCCNC(=O)N1c2ccccc2Sc2ccccc21)c1ccccc1 |  | 10 µM |
| O=C(NC1C2CC3CC(C2)CC1C3)N1c2ccccc2Sc2ccccc21 (stereo not drawn) | 51 µM |  |
